In patent US11053205B2, “Phenazine derivatives as antimicrobial agents” (University of Florida Research Foundation, Incorporated, priority 2017, dated 2021):

Experiments:
HeLa cells = experiment: LDH release assay for HeLa cytotoxicity; conditions: cytotoxicity IC50 divided by the MIC against MRSA-1707
UV-Vis metal(II) binding [1] = format: physicochemical; design: key: UV-Vis results are reported as “Binding Y/N” for HPs; UV-Vis results are reported as “Binding Y/N” for HPs
UV-Vis metal(II) binding [2] = format: physicochemical; design: key: UV-Vis results are reported as “Binding Y/N” for HPs; UV-Vis results are reported as “Binding Y/N” for HPs; remark: listed apart in the source
UV-Vis metal(II) binding [3] = format: physicochemical; design: key to Zinc(II) Binding Y/N: UV-Vis results are reported as “Binding Y/N” for HPs; UV-Vis results are reported as “Binding Y/N” for HPs; conditions: for Zinc(II) Binding Y/N: UV-Vis; for zinc(II) binding (UV-Vis): in words
UV-Vis metal(II) binding [4] = format: physicochemical; design: key to Magnesium(II) Binding Y/N: UV-Vis results are reported as “Binding Y/N” for HPs; UV-Vis results are reported as “Binding Y/N” for HPs; conditions: for Magnesium(II) Binding Y/N: UV-Vis; for magnesium(II) binding (UV-Vis): in words
VRE 700221 = experiment: MIC, broth microdilution (CLSI)
MRSA BAA-1707 = experiment: Metal(II)-cation co-treatment MIC assay; format: cell-based, Staphylococcus aureus; conditions: metal(II) at 200 μM

SMILES: CC1=C(C)C(=O)C(COC(=O)OCOc2c(Br)cc(Br)c3nc4cc(Cl)ccc4nc23)=C(C)C1=O [87A]
- Selectivity Index (HeLa cells): > 667

SMILES: CCN(CC)c1ccc2nc3c(O)c(Br)cc(Br)c3nc2c1Br [Compound 64A]
- Selectivity Index (HeLa cells): >667

SMILES: Oc1c(Br)cc(Br)c2nc3ccccc3nc12 [HP 1, 2,4-dibromophenazin-1-ol]
- Copper(II) Binding Y/N (UV-Vis metal(II) binding [1]): Y
- Iron(II) Binding Y/N (UV-Vis metal(II) binding [2]): Y
- Zinc(II) Binding Y/N (UV-Vis metal(II) binding [3]): Y
- zinc(II) binding (UV-Vis) (UV-Vis metal(II) binding [3]): bind
- Magnesium(II) Binding Y/N (UV-Vis metal(II) binding [4]): N
- magnesium(II) binding (UV-Vis) (UV-Vis metal(II) binding [4]): but not magnesium(II)

SMILES: Oc1c(Br)cc(Br)c2nc3ccc(Oc4ccccc4)cc3nc12 [HP 1-16]
- fold increase in antibacterial activities compared to HP 1 (VRE 700221): 2 fold

SMILES: Cc1cccc2nc3c(O)c(Br)cc(Br)c3nc12 [HP 1-17]
- Copper(II) Binding Y/N (UV-Vis metal(II) binding [1]): Y
- Iron(II) Binding Y/N (UV-Vis metal(II) binding [2]): Y
- Zinc(II) Binding Y/N (UV-Vis metal(II) binding [3]): Y
- zinc(II) binding (UV-Vis) (UV-Vis metal(II) binding [3]): bind
- Magnesium(II) Binding Y/N (UV-Vis metal(II) binding [4]): N
- magnesium(II) binding (UV-Vis) (UV-Vis metal(II) binding [4]): but not magnesium(II)

SMILES: Oc1c(Br)cc(Br)c2nc3c(Cl)cccc3nc12 [HP 1-21]
- Copper(II) Binding Y/N (UV-Vis metal(II) binding [1]): Y
- Iron(II) Binding Y/N (UV-Vis metal(II) binding [2]): Y
- Zinc(II) Binding Y/N (UV-Vis metal(II) binding [3]): Y
- zinc(II) binding (UV-Vis) (UV-Vis metal(II) binding [3]): bind
- Magnesium(II) Binding Y/N (UV-Vis metal(II) binding [4]): N
- magnesium(II) binding (UV-Vis) (UV-Vis metal(II) binding [4]): but not magnesium(II)

SMILES: COCCOCCOCCOCCOC(=O)Oc1c(Br)cc(Br)c2nc3c(C)cccc3nc12 [HP 1-25]
- Copper(II) Binding Y/N (UV-Vis metal(II) binding [1]): N
- Iron(II) Binding Y/N (UV-Vis metal(II) binding [2]): N
- Zinc(II) Binding Y/N (UV-Vis metal(II) binding [3]): N
- zinc(II) binding (UV-Vis) (UV-Vis metal(II) binding [3]): does not bind
- Magnesium(II) Binding Y/N (UV-Vis metal(II) binding [4]): N
- magnesium(II) binding (UV-Vis) (UV-Vis metal(II) binding [4]): does not bind

SMILES: c1ccc(CN(CCN(Cc2ccccn2)Cc2ccccn2)Cc2ccccn2)nc1 [TPEN, N,N,N′,N′-tetrakis(2-pyridylmethyl)ethane-1,2-diamine, reference compound]
- fold elevated MIC with copper(II), iron(II) and zinc(II) (MRSA BAA-1707): 3- to 11 fold
